Anti-infective test results gathered from many reports (values: NIAID ChemDB through PubChem).

All rows: tests on isolated targets; organism: HIV-1; target: Protease

ICn: concentration for n% inhibition. Conditions beyond the fields shown may differ between rows. Blank or dashed fields: not listed here.

compound | measure | conditions | read by | result
CCC(=O)O[C@@H](C/C=C(\C)C(=O)OC)C[C@@H](OC(C)=O)[C@H](CCCOC(=O)CC(C)C)OC(=O)CC(C)C | Ki |  | fluorescence | 2.1 µM
Cc1ccccc1CNC(=O)[C@H]1N(C(=O)[C@@H](O)[C@H](Cc2ccccc2)NC(=O)C(C)C(C)C(=O)O)CSC1(C)C | IC50 |  |  | <5 µM
CC(C)(C)NC(=O)[C@@H]1CSCN1C(=O)[C@@H](O)[C@H](Cc1ccccc1)NC(=O)[C@H](CS(C)(=O)=O)NC(=O)CNc1cccc2ccccc12 | IC50 |  |  | <0.05 µM
CC(C)CCN(C[C@@H](O)[C@H](Cc1ccccc1)NC(=O)OCc1ccccc1)S(=O)(=O)c1cccs1 | IC50 |  |  | 0.1 µM
C/C(=C\CC[C@@H](C)[C@H]1CC(=O)[C@@]2(C)C3=C(C(=O)C[C@]12C)[C@@]1(C)CC[C@H](O)C(C)(C)[C@@H]1CC3)C(=O)O | IC50 |  | HPLC | 20 µM
CC(C)c1ccccc1Sc1c(O)cc(-c2ccc(OCN3CCOCC3)cc2)oc1=O | IC50 | pH 4.7 | HPLC | 0.547 µM
CC(C)CN(C[C@@H](O)[C@H](Cc1ccccc1)NC(=O)OCc1ccccc1)S(C)(=O)=O | IC50 |  |  | <10 µM
CC(C)(C)OC(=O)N1C2C3C4N(C(=O)OC(C)(C)C)C5C(C1C5(CO)[C@H]3c1ccccc1)[C@@H](c1ccccc1)C24CO | Ki |  |  | 0.03 µM
C[C@H](CC(=O)C[C@@H](C)[C@H]1C[C@H](O)[C@@]2(C)C3=C(C(=O)C[C@]12C)[C@@]1(C)CCC(=O)C(C)(C)[C@@H]1CC3)C(=O)O | IC50 |  | HPLC | 70 µM
CC(C)(C)NC(=O)[C@@H]1CSCN1C(=O)[C@@H](O)[C@H](Cc1ccccc1)NC(=O)[C@H](CC(N)=O)NC(=O)OCc1ccccc1 | IC50 |  |  | <5 µM
COC(=O)N1C2C3C4N(C(=O)OC)C5C(C1C5(CO)[C@H]3c1ccccc1)[C@@H](c1ccccc1)C24CO | IC50 |  |  | 0.18 µM
Cc1ccccc1CNC(=O)[C@@H]1CSCN1C(=O)[C@@H](O)[C@H](Cc1ccccc1)NC(=O)C(C)C(C)C(=O)OC[C@@H]1O[C@H](n2cc(C)c(=O)[nH]c2=O)C[C@H]1N=[N+]=[N-] | IC50 |  |  | ~5 µM
CC[C@@H](C)[C@H](NC(=O)COc1cccc2ccccc12)C(=O)N[C@@H](Cc1ccccc1)[C@H](O)C(=O)N1CSC[C@H]1C(=O)NC(C)(C)C | IC50 |  |  | <0.05 µM
CC(C)(CC(=O)O)CC(=O)N[C@@H](Cc1ccccc1)[C@H](O)C(=O)N1CSC[C@H]1C(=O)NC(C)(C)C | IC50 |  |  | ~5 µM
CCOC(=O)[C@]12CCC(C)(C)CC1C1=CCC3[C@@]4(C)CC[C@H](OC(=O)CCCC(=O)O)[C@@](C)(COC(=O)CCCC(=O)O)C4CC[C@@]3(C)[C@]1(C)CC2 | IC50 |  | substrate cleavage / fluorescence | 27.4 µM
CSC(C)(C)[C@H](NC(=O)CN(C)C)C(=O)N[C@@H](Cc1ccccc1)[C@H](O)CN(CCC(C)C)S(=O)(=O)c1ccccc1 | IC50 |  |  | 0.0032 µM
CC(C)c1ccccc1Sc1c(O)cc(-c2ccc(OCCO)cc2)oc1=O | IC50 | pH 4.7 | HPLC | 0.035 µM
C[C@@H](O)[C@H](NC(=O)COc1cccc2ccccc12)C(=O)N[C@@H](Cc1ccccc1)[C@H](O)C(=O)N1CSC[C@H]1C(=O)NC(C)(C)C | IC50 |  |  | ~0.05 µM
CCOC(=O)[C@]12CCC(C)(C)CC1C1=CCC3[C@@]4(C)CC[C@H](OC(=O)CC(C)(C)C(=O)O)[C@@](C)(CO[Si](C)(C)C(C)(C)C)C4CC[C@@]3(C)[C@]1(C)CC2 | IC50 |  | substrate cleavage / fluorescence | 35 µM
CC(C(=O)O)C(C)C(=O)N[C@@H](Cc1ccccc1)[C@H](O)C(=O)N1CSC[C@H]1C(=O)NC(C)(C)C | IC50 |  |  | <5 µM
CC(C)c1ccccc1Sc1c(O)cc(-c2ccc(OCc3cccnc3)cc2)oc1=O | IC50 | pH 6.2 | HPLC | 0.99 µM
[N-]=[N+]=N[C@H]1[C@@H](N)[C@H](OCc2ccccc2)O[C@H](CO)[C@H]1OCc1ccccc1 | IC50 |  | fluorescence | >1000 µM
CC(C)c1ccccc1Sc1c(O)cc(-c2cccc(OCc3ccccc3)c2)oc1=O | IC50 | pH 4.7 | HPLC | 0.083 µM
C[C@H](CC[C@H](O)C(C)(C)O)[C@H]1CC[C@@]2(C)C3=C(CC[C@]12C)[C@@]1(C)CCC(=O)C(C)(C)[C@@H]1CC3=O | IC50 |  | HPLC | >500 µM
CC1(C)CC[C@]2(C(=O)O)CC[C@]3(C)C(=CCC4[C@@]5(C)CC[C@H](O)[C@@](C)(CO)C5CC[C@]43C)C2C1 | IC50 |  | substrate cleavage / fluorescence | 76 µM
CC(C)CCN(C[C@@H](O)[C@H](Cc1ccccc1)NC(=O)OCc1ccccc1)S(=O)(=O)C(F)(F)F | IC50 |  |  | <10 µM
CCC(=O)O[C@@H](C/C=C(\C)C(=O)OC)C[C@@H](OC(C)=O)[C@@H](CCCOC(=O)CC(C)C)OC(=O)CC(C)C | Ki |  | fluorescence | 10 µM
O=C(OC1C(OC(=O)c2cc(O)c(O)c(O)c2Oc2cc3c(c(O)c2O)-c2c(cc(O)c(O)c2O)C(=O)OC2C(CC3=O)C(O)OC3COC(=O)c4cc(O)c(O)c(O)c4-c4c(cc(O)c(O)c4O)C(=O)OC32)C(O)OC2COC(=O)c3cc(O)c(O)c(O)c3-c3c(cc(O)c(O)c3O)C(=O)OC21)c1cc(O)c(O)c(O)c1 | IC50 |  | HPLC | 0.9 µM
CC(C)CCN(C[C@@H](O)[C@H](Cc1ccccc1)NC(=O)[C@H](Cc1cnc[nH]1)NC(=O)c1ccc2ccccc2n1)S(=O)(=O)c1ccccc1 | IC50 |  |  | 0.003 µM
CC(C)(C)OC(=O)N[C@@H](CO)C(=O)N[C@@H](Cc1ccccc1)[C@@H](O)C(=O)NCC1CCCCC1 | IC50 |  |  | >1000 µM
C[C@H](CC(=O)C[C@@H](C)[C@H]1CC(=O)[C@@]2(C)C3=C(C(=O)C[C@]12C)[C@@]1(C)CCC(=O)C(C)(C)[C@@H]1C[C@@H]3O)C(=O)O | IC50 |  | HPLC | 240 µM
CCC(=O)O[C@@H](C/C=C(\C)C(=O)OC)C[C@H](OC(C)=O)[C@H](CCCOC(=O)CC(C)C)OC(=O)CC(C)C | Ki |  | fluorescence | 29.9 µM

The last 2 rows once more:

{"compound": "C[C@H](CC(=O)C[C@@H](C)[C@H]1CC(=O)[C@@]2(C)C3=C(C(=O)C[C@]12C)[C@@]1(C)CCC(=O)C(C)(C)[C@@H]1C[C@@H]3O)C(=O)O", "measure": "IC50", "read by": "HPLC", "result": "240 µM"}
{"compound": "CCC(=O)O[C@@H](C/C=C(\\C)C(=O)OC)C[C@H](OC(C)=O)[C@H](CCCOC(=O)CC(C)C)OC(=O)CC(C)C", "measure": "Ki", "read by": "fluorescence", "result": "29.9 µM"}